Test results taken from patent US20080194611A1, “Modulation of Cell Barrier Dysfunction” (priority 2005, published 2008).

Legend:
[1] = test system: pyocyanin (PCN) production in P. aeruginosa; assay: Pyocyanin assay; assay type: cell-based, Pseudomonas aeruginosa
[2] = test system: P. aeruginosa biofilm; assay: Biofilm formation assay; assay type: cell-based, Pseudomonas aeruginosa
[3] = test system: MDCK cells; assay: TEER of MDCK cells apically exposed to PA27853 with opioid agonists; assay type: cell-based; details: apical exposure to PA27853 plus agonist
[4] = test system: P. aeruginosa; assay: Bacterial growth; assay type: cell-based, Pseudomonas aeruginosa; details: TSB media
[5] = test system: PA-I lectin/adhesin expression in P. aeruginosa PA27853 and PAO1; details: strains PA27853 and PAO1
[6] = test system: PA-I lectin/adhesin expression in P. aeruginosa 27853/PLL-EGFP; assay: PA-I lectin/adhesin expression, fluorescence of GFP-PA-I reporter strain

Substance: trans-3,4-dichloro-N-methyl-N[2-(1-pyrrolidinyl)cyclohexyl]benzeneacetamide methanesulfonate
- PCN production in ΔPhnA and ΔPqsA [1]: slight increase in PCN production
- PCN production in ΔPhzA1 [1]: produced no PCN even when exposed to U-50,488
- dynamic tracking of PCN production in ΔMvfR/mvfR [1]: demonstrated a shift in PCN production at lower cell densities
- dynamics of PCN production in ΔGacA/gacA [1]: delayed PCN production
- PCN production versus cell density ([1]; PAO1): shift in the production of PCN at lower cell densities
- PCN production ([1]; PAO1 and 27853, overnight exposure, OD520): induced a dose-dependent effect on PCN production
- PCN production in ΔMvfR/mvfR ([1]; complemented mutant): further increased the already elevated PCN production
- PCN response of MvfR mutant 121-332 ([1]; defective in the DNA-binding domain): did not respond to U-50,488 or C4-HSL
- PCN production in ΔGacA and ΔMvfR ([1]; gacA and mvfR mutants): could not restore PCN production
- PCN production in QS mutants ([1]; lasR, lasI, rhlI, rhlR mutants): did not restore PCN production
- PCN production in ΔGacA/gacA ([1]; overnight, 1 mM U-50,488 or 100 μM C4-HSL): decreased, albeit minimally
- PCN response of MvfR mutants 1-292, 1-291, 1-283 ([1]; substrate binding domain affected): did not respond to U-50,488 and C4-HSL
- PCN response of MvfR mutants 1-299 and 1-293 ([1]; substrate binding domain intact): responded to U-50,488 and C4-HSL with enhanced PCN production
- biofilm production ([2]; PA27853): about 150 % of PA27853 induction
- biofilm formation ([2]; PAO1): enhanced biofilm formation in PAO1 in a concentration-dependent manner
- additional TEER decrease [3]: 20%
- effect on bacterial growth [4]: Neither compound had an effect on bacterial growth
- response to express PA-I [5]: induce a robust response
- PA-IL expression (fluorescence) ([6]; 27853/PLL-EGFP, 9 hours of growth in HDMEM media): Marked fluorescence was observed
- PA-I expression judged by fluorescence of the GFP reporter strain ([6]; PA27853/PLL-EGFP, opioid agonists): greatest effect on PA-I expression
